PubChem BioAssay AID504761 | Drosophila RNAi Screening Center, 2011

- Aim: 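Fly genes whose silencing reduces dengue virus type 2 infection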 (primary screen)
- System: D.Mel-2 cells from Drosophila
- Reagents: long dsRNA against Drosophila genes
- Treatment: infection with dengue virus type 2; dose and infection time not stated
- Measured: 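Per well on two replicate plates, imaging gave the percent of cells positive for viral envelope protein, ranked by infection, and a nuclear count of cells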
- Direction: infection score: higher = more virus-infected cells; cell count: higher = more cells in the well
- Rule for the call: 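Low infection ranks in the two replicates (chance level up to 0.065) followed by a retest with a 1.5-fold or larger significant decrease, p below 0.05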
- Calls: active = confirmed: knock-down lowers infection; inactive = not picked or not confirmed
In all, the deposit lists about 22,000 reagents; shown is an unselected part of those that have a named target and a result. Over the whole deposit, 116 (0.52%) were called active. 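Calls depend on retest data that are not deposited; infection was ranked per plate without normalising between plates; the unit of the infection score is not given.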 Raw values vary from plate to plate and are shown uncorrected. A number with no mark means an inactive call. Reagent sequences are not shown. Not given: the amount of reagent, the time to read-out.

The first 6 records, ahead of the listing:
Gene,dsRNA,"infection score, replicate 1","infection score, replicate 2","cell count, replicate 1","cell count, replicate 2"
CG14650,DRSC12236,3.62,6.53,6738,6880
CG14650,DRSC23822,13.7,12.2,6303,4698
Adgf-C,DRSC16473,6.18,1.31,5908,6810
Adgf-C,DRSC27008,6.37,8.27,6560,6650
CG32201,DRSC22452,3.01,15,6170,4481
snk,DRSC17060,1.18,7.47,6466,6261

Main list, from the start:
Gene,dsRNA,"infection score, replicate 1","infection score, replicate 2","cell count, replicate 1","cell count, replicate 2"
CG14650,DRSC12236,3.62,6.53,6738,6880
CG14650,DRSC23822,13.7,12.2,6303,4698
Adgf-C,DRSC16473,6.18,1.31,5908,6810
Adgf-C,DRSC27008,6.37,8.27,6560,6650
CG32201,DRSC22452,3.01,15,6170,4481
snk,DRSC17060,1.18,7.47,6466,6261
CG9759,DRSC16558,8.37,17.7,1817,3500
CG9759,DRSC26341,16,6.58,5895,6654
CG12831,DRSC06179,9.4,2.74,5859,656
CG15705,DRSC06576,,4.09,426,660
CG15705,DRSC29360,26.6,18.7,4658,5706
CG33096,DRSC14440,1.61,2.23,6224,6502
CG33096,DRSC25968,3.52,7.18,6531,6277
Mmp2,DRSC06698,4.9,4.9,6709,6794
Mmp2,DRSC22024,10.1,5.23,6196,6637
Mmp2,DRSC25458,5.31,3.45,6457,6089
Odj,DRSC16234,13.8,8.46,5977,6573
Nepl8,DRSC02759,13.5,7.44,5498,5756
CG11920,DRSC14439,3.41,3.73,5725,5608
Xxylt,DRSC04107,22.5,22,6171,5901
CG18476,DRSC15281,6.87,5.8,6633,6566
CG3556,DRSC18309,11.7,2.9,5299,6374
CG3556,DRSC27365,3.23,34.3,6631,5121
Rpn1,DRSC11274,2.15,0.71,839,1119
Psa,DRSC08152,6.62,2.95,1903,983
qvr,DRSC05280,3.88,2.57,5805,5845
CG7514,DRSC08597,1.08,0.97,6086,6395
CG7514,DRSC25670,4.67,8.88,7069,5596
CG6962,DRSC16153,4.97,8.32,4647,5243
CG6962,DRSC28894,10.8,17.1,1548,4350
CG4570,DRSC15602,9.18,3.46,5894,6297
CG14628,DRSC18626,2.97,9.19,6658,4906
CG13685,DRSC10043,3.46,2.54,6419,6304
CG13685,DRSC30064,9.23,9.39,6217,5610
mRpL52,DRSC06585,10.5,14.7,6605,6227
prg,DRSC03324,7.55,2.45,6104,6602
Rad51D,DRSC06840,12.8,5.87,4784,6574
gukh,DRSC14768,1.99,1.02,6285,5880
gukh,DRSC15806,1,8.16,6505,5651
gukh,DRSC15944,2.58,1,6018,6498
CG15253,DRSC01871,20.1,4.69,3553,6808
CG15253,DRSC26826,12.7,5.81,6483,6594
bnb,DRSC20314,0.95,4.96,6708,7098
bnb,DRSC27623,3.92,6.66,6551,4098
CG33127,DRSC00011,6.87,3.51,6287,6118
Elp4,DRSC25002,4.09,1.91,6667,6189
ng2,DRSC18803,6.77,0.51,1197,6323
CG5050,DRSC02807,6.25,7.8,6605,6606
CG42613,DRSC13332,7.4,5,5409,4843
CG42613,DRSC14769,6.75,3.37,5929,6193
CG42613,DRSC15802,3.47,2.46,6504,6148
CG42613,DRSC25089,3.38,5.83,6720,6625
CG40045,DRSC21232,7.76,6.94,6560,6284
Polr3H,DRSC10817,2.18,4.03,6110,5727
CG10494,DRSC04072,8.78,25.6,6752,6061
CG10494,DRSC29883,12.7,12.3,5486,6025
CG4069,DRSC10396,10.6,17.3,6717,6487
atk,DRSC11418,1.81,0.71,6189,6381
atk,DRSC11769,4.95,2.13,6246,6255
atk,DRSC26412,1.35,1.05,6282,6199
